# According to patent publication US20180016619A1, “Rapid Detection of Microbial Resistance to Lactam Antibiotics by LC-MS/MS” (DH Technologies Development Pte. Ltd., priority 2015, published 2018):
# Test system: resistant strain of E. coli bacteria
# Test: LC-MS/MS detection of antibiotic hydrolysis after incubation with a resistant E. coli strain
# Format: cell-based
# Details: LC-MS/MS MRM; for hydrolysis of parent antibiotic drug (chromatogram): Clinical E. coli isolates, resistant strain, incubated with a mixture of ampicillin, piperacillin and cefotaxime
Structure (SMILES),hydrolysis of parent antibiotic drug (chromatogram),presence of parent drug in chromatogram (resistant strain of E. coli expressing an extended spectrum beta-lactamase)
CC1(C)S[C@@H]2[C@H](NC(=O)[C@H](N)c3ccccc3)C(=O)N2[C@H]1C(=O)O [ampicillin],hydrolyses both antibiotic drugs,
CO/N=C(\C(=O)N[C@@H]1C(=O)N2C(C(=O)O)=C(COC(C)=O)CS[C@H]12)c1csc(N)n1 [cefotaxime],,disappearance
CCN1CCN(C(=O)N[C@@H](C(=O)N[C@@H]2C(=O)N3[C@@H]2SC(C)(C)[C@@H]3C(=O)O)c2ccccc2)C(=O)C1=O [piperacillin],hydrolyses both antibiotic drugs,
